We go through one substance from publication PMC9518701.

Sequences of proteins named here, by UniProt entry; tags and fusion partners are left off. Residues count along the entry.
UniProt P55899, 24-297, chain 1 of 2: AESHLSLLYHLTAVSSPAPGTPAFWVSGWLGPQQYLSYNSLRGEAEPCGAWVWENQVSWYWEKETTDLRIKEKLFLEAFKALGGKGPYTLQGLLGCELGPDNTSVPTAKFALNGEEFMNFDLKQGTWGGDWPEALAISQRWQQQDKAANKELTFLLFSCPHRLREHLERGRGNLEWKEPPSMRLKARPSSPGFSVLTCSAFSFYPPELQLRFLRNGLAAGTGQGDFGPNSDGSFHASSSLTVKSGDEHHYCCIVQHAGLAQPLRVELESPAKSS

One experiment has as its target FcγRIIIa (F158). The experiment in a line: SPR.
In another experiment the target is FcγRIIIa (V158). In words: SPR. On the technique in general: SPR reads the build-up and loss of mass on a sensor chip optically.
Another experiment deals with FcγRIIa (H131). In words: SPR.
For another experiment, the target named is FcγRIIa (R131). The experiment in a line: SPR.
In the next experiment the target is FcγRIIb. The experiment in a line: SPR.
For another experiment, the target named is FcγRI. In words: SPR.
Experiment [1] concerns the target human neonatal Fc receptor (FcRn) (human) (UniProt P55899). In words: SPR; pH 6.0.

Consider amubarvimab (BRII-196), for which the dissociation constant Kd with FcγRIIIa (F158) came out at 5.29 µM; with FcγRIIIa (V158) it was 0.843 µM; in the experiment with FcγRIIa (H131), 12.4 µM; in the experiment with FcγRIIa (R131) it was 19.9 µM; with FcγRIIb, 34 µM; with FcγRI, 0.0027 µM. Besides, in experiment [1], the Kd was determined as 0.0004 µM.

A word on the Kd: it is the concentration at which binding is half-saturated. Low readings indicate a tighter complex, high ones a looser complex.
